Results from paper PMC11389363, “Structural characteristics of BtKY72 RBD bound to bat ACE2 reveal multiple key residues affecting ACE2 usage of sarbecoviruses” (2024).

Experiments:
Test in all cases: SPR
[1] = target: alpaca ACE2, mFc-fused, alpaca
[2] = target: greater horseshoe bat (Rhinolophus ferrumequinum) ACE2, mFc-fused, greater horseshoe bat (Rhinolophus ferrumequinum)
[3] = target: T1, intermediate horseshoe bat (Rhinolophus affinis) ACE2, mFc-fused, intermediate horseshoe bat (Rhinolophus affinis)
T1 sequence: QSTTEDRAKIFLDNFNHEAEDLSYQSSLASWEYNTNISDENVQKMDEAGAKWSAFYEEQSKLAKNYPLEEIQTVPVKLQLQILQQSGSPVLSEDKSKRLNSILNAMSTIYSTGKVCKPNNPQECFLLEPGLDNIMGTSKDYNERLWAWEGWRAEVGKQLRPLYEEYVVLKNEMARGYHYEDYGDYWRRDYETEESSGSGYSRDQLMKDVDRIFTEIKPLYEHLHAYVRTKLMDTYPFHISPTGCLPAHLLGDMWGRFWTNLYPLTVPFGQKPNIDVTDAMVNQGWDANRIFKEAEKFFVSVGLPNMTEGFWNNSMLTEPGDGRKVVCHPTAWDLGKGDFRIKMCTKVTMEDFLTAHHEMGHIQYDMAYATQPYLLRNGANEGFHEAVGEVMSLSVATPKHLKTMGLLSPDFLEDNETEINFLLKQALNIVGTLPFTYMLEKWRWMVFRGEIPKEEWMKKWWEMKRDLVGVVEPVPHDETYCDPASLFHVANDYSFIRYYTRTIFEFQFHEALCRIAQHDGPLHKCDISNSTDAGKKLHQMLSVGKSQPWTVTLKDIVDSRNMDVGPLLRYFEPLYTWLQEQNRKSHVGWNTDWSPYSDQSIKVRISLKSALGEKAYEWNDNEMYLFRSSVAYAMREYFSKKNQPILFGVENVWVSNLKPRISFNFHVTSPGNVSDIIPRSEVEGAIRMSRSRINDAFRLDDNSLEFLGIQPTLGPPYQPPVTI

[4] = target: lander’s horseshoe bat ACE2, mouse Fc (mFc)-fused (lander’s horseshoe bat)

Row | Substance | Kd [1] [µM] | Kd [2] [µM] | Kd [3] [µM] | Kd [4] [µM]
1 | BtKY72 RBD | 76.7 | 7.19 | 3.06 | 
2 | BtKY72 RBD (domain or fragment) |  |  |  | 1.6
